Laboratory results: publication PMC9792601 (Frontiers in Chemistry, 2022)

Assay: general procedure: Fmoc solid-phase peptide synthesis; Fmoc-Gly preloaded Wang resin (loading 0.4-0.9 mmol/g); COMU/DIPEA or DIC/OxymaPure
Settings: whole synthesis, scale of the general procedure 0.1 mmol

For “PEPTIDE1{A.I.A.I.G.V.V.Q.G.L.A.F.A.L.G.G.K.K.K.G}$$$$V2.0”, the “final HPLC purity” value (200-203 nm) was 96% and the isolated yield was 60%.

Strings that start with PEPTIDE1 are HELM notation: dots part the residues, brackets hold end groups and non-standard residues.
